Like-named read-outs stand apart in the source and are kept apart here.
Experiments:
Yerssinia = assay: Inhibition zone of Yerssinia colonies exposed to composition of Table 1 in presence of antibiotics; assay type: cell-based; conditions: composition listed in Table 1 in presence of the antibiotic; for Colonies showing decrease in inhibition zone / Colonies showing increase in inhibition zone / Colonies with no change in inhibition zone: 30 colonies; for Percent colonies showing increase in inhibition zone (%): of 30 tested colonies
Brucella = assay type: cell-based; conditions: composition listed in Table 1 in presence of the antibiotic; for Colonies showing decreasing inhibition zone / Colonies showing increasing inhibition zone / Colonies with no change in inhibition zone: 30 colonies; for Percent colonies showing increase in inhibition zone (%): of 30 tested colonies

Molecule	Colonies showing decrease in inhibition zone (Yerssinia; 1 h)	Colonies showing increase in inhibition zone (Yerssinia; 1 h)	Colonies with no change in inhibition zone (Yerssinia; 1 h)	Percent colonies showing increase in inhibition zone (%) (Yerssinia; 1 h)	Colonies showing increase in inhibition zone (Yerssinia; 2 h)	Percent colonies showing increase in inhibition zone (%) (Yerssinia; 2 h)	Colonies showing decreasing inhibition zone (Brucella; 1 h)	Colonies showing increasing inhibition zone (Brucella; 1 h)	Colonies with no change in inhibition zone (Brucella; 1 h)	Percent colonies showing increase in inhibition zone (%) (Brucella; 1 h)	Colonies showing decreasing inhibition zone (Brucella; 2 h)	Colonies showing increasing inhibition zone (Brucella; 2 h)	Colonies with no change in inhibition zone (Brucella; 2 h)	Percent colonies showing increase in inhibition zone (%) (Brucella; 2 h)	Colonies showing decrease in inhibition zone (Yerssinia; 2 h)	Colonies with no change in inhibition zone (Yerssinia; 2 h)
O=C(O)c1cn(C2CC2)c2cc(N3CCNCC3)c(F)cc2c1=O [CIP, Ciprofloxacin]	0	29	1	96.7%	22	73.3%	–	–	–	–	–	–	–	–	–	–
CO/N=C(\C(=O)N[C@@H]1C(=O)N2C(C(=O)O)=C(CSc3nc(=O)c(=O)[nH]n3C)CS[C@H]12)c1csc(N)n1 [Cro, Ceftriaxone]	–	–	–	–	–	–	0	27	3	90.0%	0	27	3	90.0%	–	–
NC[C@H]1O[C@H](O[C@H]2[C@H](O)[C@@H](O[C@H]3O[C@H](CO)[C@@H](O)[C@H](N)[C@H]3O)[C@H](N)C[C@@H]2N)[C@H](O)[C@@H](O)[C@@H]1O [K, Kanamycin]	2	–	5	76.7%	–	80.0%	–	–	–	–	–	–	–	–	4	2
CCn1cc(C(=O)O)c(=O)c2ccc(C)nc21 [NA, Nalidixic acid]	5	18	7	60.0%	22	73.3%	–	–	–	–	–	–	–	–	4	4
CC1COc2c(N3CCN(C)CC3)c(F)cc3c(=O)c(C(=O)O)cn1c23 (centres unmarked) [OFX, Ofloxacin]	3	27	0	90.0%	24	80.0%	–	–	–	–	–	–	–	–	5	1
CO[C@H]1/C=C/O[C@@]2(C)Oc3c(C)c(O)c4c(O)c(c(/C=N/N5CCN(C)CC5)c(O)c4c3C2=O)NC(=O)/C(C)=C\C=C\[C@H](C)[C@H](O)[C@@H](C)[C@@H](O)[C@@H](C)[C@H](OC(C)=O)[C@@H]1C [RA, Rifampicin]	–	–	–	–	–	–	0	30	0	100%	3	27	0	90.0%	–	–
CN(C)[C@@H]1C(O)=C(C(N)=O)C(=O)[C@@]2(O)C(O)=C3C(=O)c4c(O)cccc4[C@@](C)(O)[C@H]3C[C@@H]12 [TE, Tetracycline]	–	–	–	–	–	–	0	20	10	66.7%	1	20	9	66.7%	–	–
Trimethoprim-Sulfamethoaxzole [SXT]	1	17	12	56.7%	16	53.3%	0	30	0	100%	0	30	0	100%	6	8

Source: patent US20080114054A1, “Compositions and methods for reducing antimicrobial resistance of microbes” (priority 2006, published 2008)
